Pooled drug test results. Numbers come from NIAID ChemDB, via PubChem.

All rows: whole-cell or culture tests; agent: HIV-1

An empty or dashed field is not shown. ECn: concentration that inhibits the pathogen or its effect by n%. Rows are shuffled and stem from different studies.

SMILES,changes,method,measure,strain or isolate,cell line,setting,value
N#Cc1cccc(CN2C(=O)N(Cc3cccc(C#N)c3)[C@@H](Cc3ccccc3)[C@@H](O)[C@@H]2CCc2ccccc2)c1,-,-,EC90,RF,MT-2,-,>5 µM
CC(=O)OCOC(=O)CCc1ccc2c(c1)COP(=O)(OC[C@@H]1C=C[C@H](n3cc(C)c(=O)[nH]c3=O)O1)O2,-,syncytia,EC50,IIIB,CEM + CEM/O,-,0.2 µM
Nc1nc(N)c2ncn([C@H]3CO[C@@H](CO)O3)c2n1,-,cytopathic effect / MTT,EC50,IIIB,MT-2,-,10 µM
C1CNCCNCCCN(CCCN2CCCNCCNCCCNCC2)CCNC1,-,antigen,EC50,IIIB,CEM,-,1.24 µM
Nc1ccn([C@H]2CC[C@@H](CO)O2)c(=O)n1,-,-,EC50,NL4-3,Primary T lymphocytes,-,0.115 µM
O=C(N[C@H]1c2ccccc2OC[C@H]1O)[C@H](Cc1cc2cnccc2s1)C[C@H](O)CN1CCN(Cc2ccc(-c3ccc(Cl)cc3)s2)C[C@H]1C(=O)NCC(F)(F)F,-,p24,EC50,NL4-3,MT-4,-,<0.0156 µM
CCc1nc2ccccn2c1C(=O)c1cccs1,-,RT activity,EC50,LAI,CEM + CEM-SS,-,2 µM
Cc1c(C(C)(C)C)s/c(=N\S(=O)(=O)c2cc(Cl)ccc2O)n1C,-,cytopathic effect / MTT,EC50,IIIB,MT-4,-,0.026 µM
Nc1nc2c(ncn2[C@H]2C=C[C@@H](CO)C2)c(=O)[nH]1,-,cytopathic effect / MTT,EC50,IIIB,MT-2,-,1.1 µM
CCC[C@@]1(CCc2ccccc2)CC(O)=C([C@H](CC)c2cccc(NS(=O)(=O)c3ccc(C(F)(F)F)cn3)c2)C(=O)O1,-,p24,EC50,410 clinical isolates AZT-resistant,PBMC,-,<0.04 µM
CCc1nc2ccccn2c1C(=O)c1ccccc1,-,RT activity,EC50,LAI,CEM + CEM-SS,-,41 µM
Cc1ccncc1-c1ccc(C[C@H](C[C@H](O)CN2CCN(Cc3ccc(-c4ccc(Cl)cc4)o3)C[C@H]2C(=O)NCC(F)(F)F)C(=O)N[C@H]2c3ccccc3OC[C@H]2O)o1,PR-M46I L63P V82T I84V,p24,EC50,4X (PR M46I L63P V82T I84V),MT-4,-,<0.0313 µM
COC(=O)c1ccc(Cl)cc1S(=O)(=O)/N=c1\sc(C(C)(C)C)c(C)n1C,-,cytopathic effect / MTT,EC50,IIIB,MT-4,-,>25 µM
Cc1ccnc2c1NC(=O)c1cccnc1N2C1CC1,RT-K103N K100I,cytopathic effect / MTT,EC50,-,MT-4,-,>10 µM
CC(=O)Nc1ccc(Cl)cc1S(=O)(=O)/N=c1\sc(C(C)(C)C)c(C)n1C,-,cytopathic effect / MTT,EC50,IIIB,MT-4,-,2.7 µM
Cc1ccncc1-c1ccc(C[C@H](C[C@H](O)CN2CCN(Cc3csc(-c4ccc(F)cc4)n3)C[C@H]2C(=O)NCC(F)(F)F)C(=O)N[C@H]2c3ccccc3OC[C@H]2O)o1,-,p24,EC95,NL4-3,MT-4,-,0.0078 µM
Cc1cccc2c1OP(=O)(OC[C@@H]1C=C[C@H](n3cc(C)c(=O)[nH]c3=O)O1)OC2,-,syncytia,EC50,IIIB,CEM + CEM/O,-,0.073 µM
Nc1nc(NC2CC2)c2ncn([C@H]3C=C[C@@H](CO)C3)c2n1,-,cytopathic effect / MTT,EC50,IIIB,MT-2,-,2.5 µM
O=C(N[C@H]1c2ccccc2OC[C@H]1O)[C@H](Cc1cc2ccncc2o1)C[C@H](O)CN1CCN(Cc2ccc(-c3ccc(Cl)cc3)o2)C[C@H]1C(=O)NCC(F)(F)F,PR-M46I L63P V82T I84V,p24,EC95,4X (PR M46I L63P V82T I84V),MT-4,-,0.0313 µM
NC(=O)c1cccc(CN2C(=O)N(Cc3cccc(C(N)=O)c3)[C@@H](Cc3ccccc3)[C@@H](O)[C@@H]2CCc2ccccc2)c1,-,-,EC90,RF,MT-2,-,>5 µM
CC(C)c1s/c(=N\S(=O)(=O)c2cc(Cl)ccc2C#N)n(C)c1Cl,-,cytopathic effect / MTT,EC50,IIIB,MT-4,-,0.0047 µM
CCc1nc2ccccn2c1C(=O)c1cccc(O)c1,-,RT activity,EC50,IIIB,MT-4,-,>5 µM
Cc1ccncc1-c1ccc(C[C@H](C[C@H](O)CN2CCN(C(C)(C)c3ncc(-c4ccc(Cl)cc4)s3)C[C@H]2C(=O)NCC(F)(F)F)C(=O)N[C@H]2c3ccccc3OC[C@H]2O)o1,-,p24,EC50,NL4-3,MT-4,-,<0.0156 µM
C[C@H](Cn1cnc2c(N)ncnc21)OCP(=O)(O)O,+Vpx,-,EC50,NL4-3,MT-4,-,2.162 µM
O=C(NC(=S)Nc1ccc(Br)cn1)c1ccccc1[N+](=O)[O-],-,p24 / luciferase,EC50,NL4-3,MT-4,-,0.12 µM
CC(C)=CCN1Cc2cc(Cl)cc3[nH]c(=S)n(c23)C[C@@H]1C,RT-D67N K70R T215Y K219Q K103N,-,EC95,-,MT-4,-,>3 µM
Cc1c(C(C)(C)C)s/c(=N\S(=O)(=O)c2cccc([N+](=O)[O-])c2)n1C,-,cytopathic effect / MTT,EC50,IIIB,MT-4,-,0.085 µM
Cc1ccnc2c1NC(=O)c1cccnc1N2C1CC1,-,-,EC50,NL4-3,Primary T lymphocytes,-,1.017 µM
CC(C)(c1ncc(-c2ccc(Cl)cc2)o1)N1CCN(C[C@@H](O)C[C@@H](Cc2cc3c(Cl)cncc3s2)C(=O)N[C@H]2c3ccccc3OC[C@H]2O)[C@H](C(=O)NCC(F)(F)F)C1,-,p24,EC95,NL4-3,MT-4,-,<0.0078 µM
CC1(C)C2CC[C@@]3(C)C4CC[C@@]5(C)CC[C@](C)(C(=O)O)C[C@H]5C4=CC(=O)C3[C@@]2(C)CC[C@@H]1O[C@@H]1O[C@H](C(=O)O)[C@@H](O[C@@H]2O[C@H](C(=O)O)[C@@H](O)[C@H](O)[C@H]2O)[C@H](O)[C@H]1O,-,p24 / ELISA / antigen,EC50,EVK,MT-4,-,125 µg/mL
CCc1nc2ncccn2c1C(=O)c1ccco1,-,RT activity,EC50,IIIB,MT-4,-,>100 µM
CC(C)c1s/c(=N\S(=O)(=O)c2cc(Br)ccc2O)n(C)c1Cl,-,cytopathic effect / MTT,EC50,IIIB,MT-4,-,0.037 µM
Cc1cn([C@H]2C[C@H](N=[N+]=[N-])[C@@H](CO)O2)c(=O)[nH]c1=O,-,p24 / luciferase,EC50,NL4-3,TZM-bl,pseudotyped,0.14 µg/mL
CCc1nc2ncccn2c1C(=O)c1ccccc1,-,RT activity,EC50,IIIB,MT-4,-,>100 µM
Cc1c(C(C)C)s/c(=N\S(=O)(=O)c2cc(F)ccc2C#N)n1C,-,cytopathic effect / MTT,EC50,IIIB,MT-4,-,0.0077 µM
Cc1cn([C@H]2C=C[C@@H](CO)O2)c(=O)[nH]c1=O,+Vpx,-,EC50,NL4-3,MDM,-,2.009 µM

For reference, 3 entries again:

SMILES,changes,method,measure,strain or isolate,cell line,setting,value
Cc1c(C(C)C)s/c(=N\S(=O)(=O)c2cc(F)ccc2C#N)n1C,-,cytopathic effect / MTT,EC50,IIIB,MT-4,-,0.0077 µM
CCC[C@@]1(CCc2ccccc2)CC(O)=C([C@H](CC)c2cccc(NS(=O)(=O)c3ccc(C(F)(F)F)cn3)c2)C(=O)O1,-,p24,EC50,410 clinical isolates AZT-resistant,PBMC,-,<0.04 µM
NC(=O)c1cccc(CN2C(=O)N(Cc3cccc(C(N)=O)c3)[C@@H](Cc3ccccc3)[C@@H](O)[C@@H]2CCc2ccccc2)c1,-,-,EC90,RF,MT-2,-,>5 µM